Compound potency records, mixed from different reports. Data source: NIAID ChemDB in PubChem.

Common to all: whole-cell or culture tests; organism: HIV-1; method: cytopathic effect; endpoint: EC50

ECn is the concentration giving n% inhibition of infection, replication or growth.

{"structure": "O=C(N[C@H]1c2ccccc2C[C@H]1O)[C@@H](C[C@@H](O)[C@@H](OCc1ccccc1)C(=O)N[C@H]1c2ccccc2C[C@H]1O)OCc1ccccc1", "cell line": "MT-4", "result": "1.44 µM"}
{"structure": "Cc1ccnc2c1NC(=O)c1cccnc1N2C1CC1", "changes": "RT-E138K", "cell line": "CEM", "result": "0.044 µM"}
{"structure": "CC(C)=CCOc1cc(NC(=S)c2ccoc2C)ccc1Cl", "strain or isolate": "Q-1 (RT T139K Y181C Y188D/Y)", "changes": "RT-T139K Y181C Y188D/Y", "cell line": "CEM", "result": "0.06 µg/mL"}
{"structure": "CNC(=O)[C@@H](NC(=O)[C@H](OCc1ccc(C2=C(O)C(=O)CCC2)cc1)[C@H](O)[C@@H](O)[C@@H](OCc1ccc(C2=C(O)C(=O)CCC2)cc1)C(=O)N[C@H](C(=O)NC)C(C)C)C(C)C", "cell line": "MT-4", "result": "5.6 µM"}
{"structure": "Cc1ccnc(N2C(=O)CSC2c2c(Cl)cccc2Cl)n1", "strain or isolate": "IIIB", "cell line": "MT-4", "result": "0.044 µM"}
{"structure": "Cc1ccnc2c1NC(=O)c1cccnc1N2C1CC1", "strain or isolate": "J-2 (RT-Y181C)", "changes": "RT-Y181C", "cell line": "CEM", "result": "0.65 µg/mL"}
{"structure": "CNC(=O)c1cccc(CN2[C@H](COc3ccccc3)[C@H](O)[C@@H](O)[C@@H](COc3ccccc3)N(Cc3ccccc3)S2(=O)=O)c1", "cell line": "MT-4", "result": ">79 µM"}
{"structure": "CC(C)=CCOc1cc(NC(=S)c2ccsc2C)ccc1Cl", "strain or isolate": "IIIB", "changes": "RT-E138K", "cell line": "CEM", "result": "0.006 µg/mL"}
{"structure": "Nc1ccn([C@H]2CC[C@@H](CO)O2)c(=O)n1", "strain or isolate": "NI-10.93 (HXB2 RT T69N K70R Q151M)", "changes": "RT-T69N K70R Q151M", "cell line": "MT-4", "result": "7.3 µM"}
{"structure": "Cc1cn([C@@H]2O[C@H](CO[Si](C)(C)C(C)(C)C)C3(OS(=O)(=O)C=C3N)[C@H]2O[Si](C)(C)C(C)(C)C)c(=O)n(C)c1=O", "strain or isolate": "HE", "cell line": "MOLT-4", "result": "0.06 µg/mL"}
{"structure": "Cc1cn([C@H]2C[C@H](N=[N+]=[N-])[C@@H](CO)O2)c(=O)[nH]c1=O", "changes": "RT-K103N", "cell line": "CEM", "result": "0.011 µM"}
{"structure": "CNC(=O)[C@H](Cc1ccccc1)NC(=O)[C@H](OCc1ccccc1)[C@H](O)[C@@H](O)[C@@H](OCc1ccccc1)C(=O)N[C@@H](Cc1ccccc1)C(=O)NC", "cell line": "MT-4", "result": ">140 µM"}
{"structure": "Fc1cccc(F)c1C1SCc2nc3ccccc3n21", "changes": "RT-Y181C", "cell line": "CEM", "result": "13.8 µM"}
{"structure": "CC(C)=CCN1Cc2cc(Cl)cc3[nH]c(=S)n(c23)C[C@@H]1C", "strain or isolate": "IIIB", "changes": "RT-K103N", "cell line": "CEM", "result": "≥5 µg/mL"}
{"structure": "Cc1cn([C@H]2C[C@H](C#N)[C@@H](CO)O2)c(=O)[nH]c1=O", "strain or isolate": "IIIB", "cell line": "ATH8", "result": ">2.5 µg/mL"}
{"structure": "Cc1cn([C@H]2C[C@H](N=[N+]=[N-])[C@@H](CO)O2)c(=O)[nH]c1=O", "strain or isolate": "DI-06.92 (HXB2 RT-K70R)", "changes": "RT-K70R", "cell line": "MT-4", "result": "0.058 µM"}
{"structure": "CCOCn1c(Cc2ccccc2)c(C(C)C)c(=O)[nH]c1=O", "strain or isolate": "Q-1 (RT T139K Y181C Y188D/Y)", "changes": "RT-T139K Y181C Y188D/Y", "cell line": "CEM", "result": "2 µg/mL"}
{"structure": "CC(C)Nc1cccnc1N1CCN(C(=O)c2cc3cc(NS(C)(=O)=O)ccc3[nH]2)CC1", "strain or isolate": "IIIB", "changes": "RT-E138K", "cell line": "CEM", "result": "0.016 µg/mL"}
{"structure": "Fc1cccc(F)c1C1SCc2nc3ccccc3n21", "changes": "RT-Y181C", "cell line": "CEM", "result": "13.8 µM"}
{"structure": "O=c1[nH]cnc2c1ncn2[C@H]1CC[C@@H](CO)O1", "strain or isolate": "FO-01.95", "cell line": "MT-4", "result": "15.9 µM"}

2 of the rows above, restated:

{"structure": "CC(C)=CCN1Cc2cc(Cl)cc3[nH]c(=S)n(c23)C[C@@H]1C", "strain or isolate": "IIIB", "changes": "RT-K103N", "cell line": "CEM", "result": "≥5 µg/mL"}
{"structure": "Cc1cn([C@H]2C[C@H](C#N)[C@@H](CO)O2)c(=O)[nH]c1=O", "strain or isolate": "IIIB", "cell line": "ATH8", "result": ">2.5 µg/mL"}

Rows are shuffled and stem from different studies.